Measured values as given in the supplement of paper PMC9931576.
Human monoclonal antibodies against the spike receptor-binding domain (heavy:light variable regions). IC50 against pseudoviruses bearing the spike of naturally observed variants; lower = stronger; >10 µg/ml means not reached at the top dose. No active / inactive call. The stated detection limit is 0.0005 µg/ml; values near or below 0.001 µg/ml lie at the floor of the assay.

B1: BD58-0537 (protein)
chain 1: QLQLQESGPGLVKPSETLSLTCNVSGGSINNKNCYWGWIRQPPGKGLEWTGSVYYSGYTYYNPSLKSRVTISVDTSKNQFSLKLSSVTAADTAVYYCVANSGSYEDFHHYYAMDVWGQGTTVTVSS
chain 2: QSVLTQPPSVSGAPGQRVTISCTGSSSNIGAGYDVHWYQQLPGTAPKLLIYDNINRPSGVPDRFSGSKSATSASLAITGLQAEDEADYYCQSYDSSLSGSVFGGGTKLTVL
B2: BD58-0531 (protein)
chain 1: EVQLVESGGGLVKPGGSLRLSCAASGFTFSNAWMSWVRQAPGKGLEWVGRIKRKSDGGTTDYAAPVKGRFTISRDESKNTLYLQMNSLKTEDTAIYYCTTDRGIQLWIYGMDVWGQGTTVTVSS
chain 2: SYELTQPPSVSVSPGQTARITCSGDALPIQYAYWYQQKPGQAPVLVIYKDSERPSGIPERISGSSSGTTVTLTISGVQAEDEADYYCQSADSSGSYVVFGGGTKLTVL
B3: BD58-0543 (protein)
chain 1: EVQLAQSGAELKKPGATVKISCKVSGYTLADYYIHWIQQAPGRGLEWTALIDPENGQTLSTEKFQGRLTISADTSTDTIYMELSRLRSEDTAFYFCAIASRPFSSGGYRPEYYHLWGQGTLVTVSS
chain 2: DIQVTQSPSSLSASIGDRVTITCRASQPINDYLNWYQQKPGKAPKLLIYAASTLQSGVPSRFSGSGSGTDFTLTISSLQPDDFATYYCQQTFITPPYTFGQGTKLEIQ
B4: BD58-0525 (protein)
chain 1: QVQLVESGGGVVQPGRSLRLSCAASGFIFSNYGMHWVRQAPGKGLEWVAVIWYDTSNKYYADSVKGRFTISRDNSKNTLYLQMNSLRAEDTAVYYCAKDIAAYCAGECHGALSWGQGTLVTVSS
chain 2: SYVLTQPPSVSVAPGQTARITCGGKNIGRKSVHWYQQKSGQAPVLVVFDDSDRPSGIPERFSGSNSGNTATLTISRVEAGDEADYYCQVWDTSSDLPGVFGGGTKLTVL
B5: BD58-0542 (protein)
chain 1: QVTLRESGPALVKPTETLTLTCTFSGFSLSTSAMCVSWIRQPPGKALEWLARIDWEDDKYYSSSLKTRLTISKDTSKNQVFLTMTNMDPVDTATYYCARSGSGNYEDAFDVWGQGTMVTVSS
chain 2: SYELTQPPSLSVSPGQTAKITCSGDTLPNQFAYWYQQKPGQAPVMVIYKDTERPSGIPERFSGSSSGTSVTLIISGVQAEDEADYYCQSSDSRGSYRVILGGGTKLTVL

Target: SARS-CoV-2 Omicron BA.1 spike pseudovirus
Experiment: pseudovirus neutralization IC50; higher = weaker neutralization
Procedure: (§1)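 Single-round VSV luciferase pseudovirus mixed with antibody dilutions for 1 h and put on Huh-7 cells for about a day; IC50 from the dose curve.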

Binder | pseudovirus neutralization IC50
B1 | 0.0804 mg/L
B2 | 0.00762 mg/L
B3 | > 10 mg/L
B4 | > 10 mg/L
B5 | > 10 mg/L

Target: SARS-CoV-2 Omicron BA.2 spike pseudovirus
Experiment: as above
Procedure: as §1

Binder | pseudovirus neutralization IC50
B1 | 0.00112 mg/L
B2 | 0.323 mg/L
B3 | 0.513 mg/L
B4 | 1.72 mg/L
B5 | 0.782 mg/L

Target: SARS-CoV-2 Omicron BA.2.75 spike pseudovirus
Experiment: as above
Procedure: as §1

Binder | pseudovirus neutralization IC50
B1 | 0.0149 mg/L
B2 | 0.0863 mg/L
B3 | > 10 mg/L
B4 | > 10 mg/L
B5 | > 10 mg/L

Target: SARS-CoV-2 Omicron BA.2.75.2 spike pseudovirus
Experiment: as above
Procedure: as §1

Binder | pseudovirus neutralization IC50
B1 | 0.0177 mg/L
B2 | 0.108 mg/L
B3 | > 10 mg/L
B4 | > 10 mg/L
B5 | > 10 mg/L

Target: SARS-CoV-2 Omicron BA.5 spike pseudovirus
Experiment: as above
Procedure: as §1

Binder | pseudovirus neutralization IC50
B1 | 0.00375 mg/L
B2 | 0.0902 mg/L
B3 | > 10 mg/L
B4 | 0.395 mg/L
B5 | > 10 mg/L

Target: SARS-CoV-2 Omicron BM.1.1.1 spike pseudovirus
Experiment: as above
Procedure: as §1

Binder | pseudovirus neutralization IC50
B1 | 0.0161 mg/L
B2 | 0.0585 mg/L
B3 | > 10 mg/L
B4 | > 10 mg/L
B5 | > 10 mg/L

Target: SARS-CoV-2 Omicron BQ.1.1 spike pseudovirus
Experiment: as above
Procedure: as §1

Binder | pseudovirus neutralization IC50
B1 | 0.0114 mg/L
B2 | 0.264 mg/L
B3 | > 10 mg/L
B4 | > 10 mg/L
B5 | > 10 mg/L

Target: SARS-CoV-2 Omicron BR.2 spike pseudovirus
Experiment: as above
Procedure: as §1

Binder | pseudovirus neutralization IC50
B1 | 0.016 mg/L
B2 | 0.0448 mg/L
B3 | > 10 mg/L
B4 | > 10 mg/L
B5 | > 10 mg/L

Target: SARS-CoV-2 Omicron CA.1 spike pseudovirus
Experiment: as above
Procedure: as §1

Binder | pseudovirus neutralization IC50
B1 | 0.0128 mg/L
B2 | 0.0329 mg/L
B3 | > 10 mg/L
B4 | > 10 mg/L
B5 | > 10 mg/L

Target: SARS-CoV-2 Omicron XBB spike pseudovirus
Experiment: as above
Procedure: as §1

Binder | pseudovirus neutralization IC50
B1 | 0.0117 mg/L
B2 | 0.0797 mg/L
B3 | > 10 mg/L
B4 | > 10 mg/L
B5 | > 10 mg/L

Target: SARS-CoV-2 early D614G spike pseudovirus
Experiment: as above
Procedure: as §1

Binder | pseudovirus neutralization IC50
B1 | > 10 mg/L
B2 | > 10 mg/L
B3 | > 10 mg/L
B4 | > 10 mg/L
B5 | > 10 mg/L
